{"source": "patent US20110039758A1", "about": "(published 2011)", "biological_target": "T1, Maltose Binding Protein (MBP) fused to […] of nNOS", "T1 construct": "range […]; also called MBP-nNOS; internal PL of nNOS", "test": "G assay with MBP-nNOS, anti-MBP-HRP, FIG. 11", "data": [{"binder": "GST-PSD95 PDZ domain 2 (other, also called PSD95 d2; PSD-95 d2) MSPILGYWKIKGLVQPTRLLLEYLEEKYEEHLYERDEGDKWRNKKFELGLEFPNLPYYIDGDVKLTQSMAIIRYIADKHNMLGGCPKERAEISMLEGAVLDIRYGVSRIAYSKDFETLKVDFLSKLPEMLKMFEDRLCHKTYLNGDHVTHPDFMLYDALDVVLYMDPMCLDAFPKLVCFKKRIEAIPQIDKYLKSSKYIAWPLQGWQATFGGGDHPPKSDLIEGRHVMRRKPPAEKVMEIKLIKGPKGLGFSIAGGVGNQHIPGDNSIYVTKIIEGGAAHKDGRLQIGDKILAVNSVGLEDVMHEDAVAALKNTYDVVYLKVAKPSNAYL", "values": [{"measurement": "binding result", "result": "binds"}]}]}
